Data as given in PubChem BioAssay AID504761 (Drosophila RNAi Screening Center, 2011).
Aim: 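Genome-wide fly cell screen for genes dengue virus requires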 (primary screen). Cell system: D.Mel-2 cells from Drosophila. Reagents: long dsRNA against Drosophila genes. Conditions: infection with dengue virus type 2; dose and infection time not stated. Detection: 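Cells stained for dengue envelope protein and imaged; percent of infected cells per well on duplicate plates, ranked by infection, with stained nuclei counted for cell number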. Direction: infection score: higher = more virus-infected cells; cell count: higher = more cells in the well. Active means: 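Very low infection ranking in both replicate wells (chance probability at most 0.065), then a retest showing infection dropped 1.5-fold or more at p below 0.05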. Calls: active = confirmed: knock-down lowers infection; inactive = not picked or not confirmed.
In all, the deposit lists about 22,000 reagents; shown is a random part of those that have a named target and a result. Over the whole deposit, 116 (0.52%) were called active. 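Calls depend on retest data that are not deposited; infection was ranked per plate without normalising between plates; the unit of the infection score is not given.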 Raw values vary from plate to plate and are shown uncorrected. A plus sign joins genes that one reagent is predicted to hit. No sequences are given here. The record does not give: the amount of reagent, the time to read-out.

target gene | dsRNA | infection score, replicate 1 | infection score, replicate 2 | cell count, replicate 1 | cell count, replicate 2 | call
CG31639 | DRSC00910 | 0.65 | 0.03 | 5373 | 6703 | active
CG31639 | DRSC28271 | 10.2 | 6.42 | 4449 | 1417 | inactive
ubl | DRSC04998 | 7.85 | 9.54 | 6099 | 3303 | inactive
BCAS2 | DRSC15693 | 10.3 | 14.7 | 5524 | 5588 | inactive
BCAS2 | DRSC28064 | 11.7 | 8.15 | 6174 | 6493 | inactive
SA1 | DRSC03424 | 7.54 | 9.57 | 5766 | 3384 | inactive
SA1 | DRSC28222 | 13.1 | 11.3 | 4833 | 4128 | inactive
CG1317 | DRSC08305 | 10.9 | 12.5 | 7032 | 6027 | inactive
CG17134 | DRSC02583 | 4.13 | 5.25 | 6903 | 6548 | inactive
CG8159 | DRSC16392 | 0.91 | 18 | 6402 | 5436 | inactive
CG8159 | DRSC27425 | 12.9 | 14.2 | 6516 | 7009 | inactive
Nuak | DRSC14414 | 2.86 | 9.5 | 6468 | 6803 | inactive
Nuak | DRSC14415 | 13.8 | 14.3 | 6183 | 5759 | inactive
Nuak | DRSC14416 | 2 | 31.4 | 7012 | 5463 | inactive
CG17944 | DRSC12572 | 7 | 12.5 | 6400 | 6150 | inactive
CG15117 | DRSC06539 | 3.77 | 4.91 | 6097 | 6452 | inactive
CG15117 | DRSC25471 | 5.45 | 7.09 | 6052 | 5728 | inactive
scaf | DRSC04849 | 7.09 | 26.4 | 6667 | 6017 | inactive
CG13003 | DRSC19522 | 11 | 4.45 | 6136 | 6427 | inactive
Cand1 | DRSC01992 | 2.37 | 5.16 | 7081 | 6318 | inactive
CG6180 | DRSC02937 | 4.17 | 13.2 | 6718 | 6233 | inactive
CG6180 | DRSC25726 | 6.37 | 4.43 | 7033 | 6408 | inactive

Limited to “infection score, replicate 1” (9 entries from above):
Nuak [DRSC14416]: 2
CG17944 [DRSC12572]: 7
CG15117 [DRSC06539]: 3.77
CG15117 [DRSC25471]: 5.45
scaf [DRSC04849]: 7.09
CG13003 [DRSC19522]: 11
Cand1 [DRSC01992]: 2.37
CG6180 [DRSC02937]: 4.17
CG6180 [DRSC25726]: 6.37

The listing continues:
target gene | dsRNA | infection score, replicate 1 | infection score, replicate 2 | cell count, replicate 1 | cell count, replicate 2 | call
CG6974 | DRSC16160 | 9.48 | 18.6 | 3059 | 4751 | inactive
LManIV | DRSC03222 | 2.76 | 3.92 | 6485 | 6630 | inactive
LManIV | DRSC27811 | 12.4 | 7.39 | 5730 | 7172 | inactive
CG5577 | DRSC10519 | 7.9 | 15.2 | 6101 | 6549 | inactive
Osi9 | DRSC12278 | 2.42 | 6.95 | 7467 | 6546 | inactive
Osi9 | DRSC28928 | 14.5 | 16.4 | 5672 | 5657 | inactive
CG13921 | DRSC08390 | 1.48 | 2.66 | 6270 | 7282 | inactive
CG13921 | DRSC25529 | 3.75 | 4.41 | 6483 | 6321 | inactive
CG7968 | DRSC01903 | 3.87 | 9.2 | 6052 | 5032 | inactive
aft | DRSC07576 | 10.7 | 17.2 | 5787 | 5840 | inactive
CG7369 | DRSC23501 | 10.1 | 1.74 | 6765 | 6316 | inactive
CG8757 | DRSC11039 | 0.35 | 1.7 | 6624 | 6358 | inactive
CG8757 | DRSC24587 | 4.79 | 3.87 | 6622 | 6225 | inactive
CG13473 | DRSC10017 | 10.8 | 7.7 | 6323 | 5649 | inactive
chp | DRSC16925 | 9.97 | 2.08 | 5995 | 6540 | inactive
chp | DRSC26106 | 19.4 | 4.56 | 5873 | 5729 | inactive
waw + bbx | DRSC24894 | 3.05 | 9.36 | 6651 | 6847 | inactive
CG12590 | DRSC12216 | 9.73 | 6.32 | 6022 | 6818 | inactive
CG5708 | DRSC02881 | 1.06 | 1.03 | 6978 | 6611 | inactive
Septin1 | DRSC20573 | 5.61 | – | 6079 | – | inactive
CG13544 | DRSC04186 | 15.6 | 15 | 6202 | 5687 | inactive
CG13544 | DRSC30038 | 17.5 | 14.5 | 6943 | 6803 | inactive
ArfGAP3 | DRSC11794 | 11.3 | 7.26 | 5051 | 6833 | inactive
ArfGAP3 | DRSC25639 | 8.01 | 15.3 | 6203 | 5015 | inactive
epsilonTry | DRSC07611 | 12.2 | 4.87 | 5564 | 5710 | inactive
epsilonTry | DRSC25110 | 4.25 | 0.6 | 5713 | 5649 | inactive
Cec-Psi1 | DRSC21956 | 5.17 | 2.23 | 6736 | 673 | inactive
CG15213 | DRSC10213 | 2.05 | 1.38 | 6098 | 5929 | inactive
CG9641 | DRSC00721 | 7.07 | 2.45 | 6139 | 6397 | inactive
CG9641 | DRSC27080 | 15.8 | 5.19 | 6504 | 6914 | inactive
CG10301 | DRSC14226 | 3.34 | 15.9 | 5626 | 5418 | inactive
Tmx3 | DRSC10471 | 9.94 | 5.74 | 2979 | 6616 | inactive
CG15891 + CG15892 | DRSC18095 | 16.2 | 0.83 | 6516 | 6024 | inactive
CG15891 + CG15892 | DRSC18096 | 22.9 | 7.39 | 5567 | 3911 | inactive
Tpst | DRSC18989 | 0.48 | – | 6502 | 6221 | inactive
Tpst | DRSC19696 | 11.2 | 9.15 | 6336 | 6692 | inactive
Tpst | DRSC19723 | 4.56 | 8.69 | 6573 | 6606 | inactive
Tpst | DRSC24990 | 17.4 | 12.8 | 4568 | 4206 | inactive
Tpst | DRSC25122 | 4.7 | 11.6 | 6958 | 6217 | inactive
Tpst | DRSC25422 | 4.84 | 17.1 | 5802 | 4398 | inactive
